Data published in PMC3534098 (PLoS ONE, 2012).

Protein sequences, listed by entry. Tags and fused reporters are not part of them.
UniProt P63886, whole entry, looked up: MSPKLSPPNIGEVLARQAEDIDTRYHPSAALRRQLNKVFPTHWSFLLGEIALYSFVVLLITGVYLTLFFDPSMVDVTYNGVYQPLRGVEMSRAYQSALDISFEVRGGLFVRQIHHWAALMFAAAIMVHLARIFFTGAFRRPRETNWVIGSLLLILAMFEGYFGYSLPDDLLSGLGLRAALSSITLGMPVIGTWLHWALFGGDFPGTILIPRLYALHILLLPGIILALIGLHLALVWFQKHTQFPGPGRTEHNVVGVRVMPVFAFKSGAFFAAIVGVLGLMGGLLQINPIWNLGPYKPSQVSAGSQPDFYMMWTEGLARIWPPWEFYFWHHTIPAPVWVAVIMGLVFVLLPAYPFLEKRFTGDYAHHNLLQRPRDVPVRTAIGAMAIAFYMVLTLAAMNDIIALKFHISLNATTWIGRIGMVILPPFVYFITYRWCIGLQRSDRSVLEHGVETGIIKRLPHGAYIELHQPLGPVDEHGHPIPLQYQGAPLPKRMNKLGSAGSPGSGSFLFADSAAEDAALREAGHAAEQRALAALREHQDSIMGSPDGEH
UniProt P9WH23, whole entry, looked up: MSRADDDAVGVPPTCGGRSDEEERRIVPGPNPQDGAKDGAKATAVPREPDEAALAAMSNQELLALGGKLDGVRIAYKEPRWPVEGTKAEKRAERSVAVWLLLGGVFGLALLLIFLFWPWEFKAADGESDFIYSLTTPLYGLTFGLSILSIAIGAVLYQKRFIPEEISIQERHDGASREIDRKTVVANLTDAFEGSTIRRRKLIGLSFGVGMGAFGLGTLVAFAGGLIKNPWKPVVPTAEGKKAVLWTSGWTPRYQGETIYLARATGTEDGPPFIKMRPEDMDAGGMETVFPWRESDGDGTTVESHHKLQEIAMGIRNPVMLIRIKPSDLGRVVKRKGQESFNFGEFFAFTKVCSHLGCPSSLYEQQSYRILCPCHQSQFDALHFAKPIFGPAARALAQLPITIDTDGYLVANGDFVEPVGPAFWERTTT

Target: M. bovis BCG QcrB (UniProt P63886+P9WH23)
Assay: MIC in M. bovis BCG over-expressing QcrB (pMV261 constructs)

## Cc1ccc2nc(C)c(C(=O)NCc3ccc(C(F)(F)F)cc3)n2c1 [IP 3, 2,6-Dimethyl-N-(4-(trifluoromethyl)benzyl)imidazo[1,2-a]pyridine-3-carboxamide]
M. bovis BCG containing pMV261::qcrB, pMV261::qcrCAB or pMV261::ctaE-qcrCAB
  MIC with QcrB over-expression: > 8 µM
At 16× MIC, all three inserts including pMV261::qcrB
  growth of QcrB over-expressing transformants: ample growth
